The results in this text go back to patent US9328130B2, “Method of treating organism by biologically active compounds specifically delivered into mitochondria, pharmaceutical composition required for the use of the method and a compound applicable for this purpose” (MITOTECH S.A., priority 2005, dated 2016).

The series deals with tymus lymphocytes. Nature of the series: Induction of mitochondrial non-selective pore.

Consider `O=[As]c1ccccc1` (centres unmarked), for which the “effect of mitochondrial pore induction” value is listed as “release of Ca^2+ ions from mitochondria into cytoplasm” and the non-specific toxicity result was “high non-specific toxicity”.
